## PSTVd loop 15 mutant pool in Nicotiana benthamiana

From the data files of Wu et al. 2024, doi:10.1371/journal.ppat.1012142.

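Three N. benthamiana plants were inoculated with the whole mutant pool. Samples came from the inoculated region at 5 days, the leaf margin at 10 and upper systemic leaves at 12.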

Region: loop 15 of PSTVd (intermediate strain), upper and lower strand joined, each 5' to 3', the first 7 letters being the upper strand, closing pairs included. Wild type: GGAAACCGCUACUAC. Varied positions (N): GGAAACCGNNNNNNC.

Values are reads per thousand in the sample; higher means more abundant, 0 means not found. Each site shows the three plants. "Pool" is the share in the plasmid pool used as inoculum, on the same scale. The inoculated region was read from the minus strand, the other sites from the plus strand. With 43,870-66,106 reads a sample, very low values are single reads.

GGAAACCGAACGAAC (pool 0.272) read inoculated region 0.344 / 0.305 / 0.400; leaf margin 0.0162 / 0 / 0.0200; systemic leaves 0 / 0 / 0.
GGAAACCGACAAACC (pool 0.240) read inoculated region 0.0655 / 0.112 / 0.0190; leaf margin 0.0162 / 0 / 0; systemic leaves 0 / 0 / 0.
GGAAACCGACAGGGC (pool 0.224) read inoculated region 0.0655 / 0.0482 / 0.0952; leaf margin 0.0323 / 0 / 0.0200; systemic leaves 0 / 0 / 0.
GGAAACCGACGUCUC (pool 0.160) read inoculated region 0.115 / 0.0643 / 0.171; leaf margin 0 / 0 / 0; systemic leaves 0 / 0 / 0.
GGAAACCGAGCAGCC (pool 0.128) read inoculated region 0.0819 / 0.0321 / 0.133; leaf margin 0 / 0 / 0; systemic leaves 0.0161 / 0 / 0.
GGAAACCGAGUCGGC (pool 0.240) read inoculated region 0.0819 / 0.112 / 0.152; leaf margin 0 / 0 / 0; systemic leaves 0 / 0 / 0.
GGAAACCGAUAACUC (pool 0.256) read inoculated region 0.311 / 0.193 / 0.190; leaf margin 0.146 / 0.156 / 0.100; systemic leaves 0.0322 / 0 / 0.
GGAAACCGAUUGCAC (pool 0.160) read inoculated region 0.164 / 0.112 / 0.0381; leaf margin 0 / 0 / 0; systemic leaves 0.0161 / 0 / 0.
GGAAACCGCACACCC (pool 0.272) read inoculated region 0.0655 / 0.0964 / 0.114; leaf margin 0 / 0.0223 / 0; systemic leaves 0 / 0 / 0.
GGAAACCGCAGGCCC (pool 0.240) read inoculated region 0.0983 / 0.177 / 0.0571; leaf margin 0 / 0 / 0; systemic leaves 0 / 0 / 0.
GGAAACCGCAUGGGC (pool 0.272) read inoculated region 0.0328 / 0.0803 / 0.0952; leaf margin 0 / 0 / 0; systemic leaves 0 / 0 / 0.
GGAAACCGCAUUACC (pool 0.352) read inoculated region 0.0819 / 0.0643 / 0.0571; leaf margin 0 / 0 / 0; systemic leaves 0 / 0 / 0.
GGAAACCGCCAGGGC (pool 0.192) read inoculated region 0.115 / 0.0643 / 0.0571; leaf margin 0 / 0.0223 / 0; systemic leaves 0 / 0 / 0.
GGAAACCGCCGUUCC (pool 0.128) read inoculated region 0.0819 / 0.0964 / 0.152; leaf margin 0 / 0 / 0.0200; systemic leaves 0 / 0 / 0.
GGAAACCGCGACUUC (pool 0.288) read inoculated region 0.426 / 0.257 / 0.457; leaf margin 0.0970 / 0.0445 / 0.160; systemic leaves 0 / 0.0151 / 0.137.
GGAAACCGCGAUCGC (pool 0.240) read inoculated region 0.0164 / 0.0482 / 0.0571; leaf margin 0.0162 / 0 / 0.0200; systemic leaves 0 / 0 / 0.
GGAAACCGCGGACCC (pool 0.208) read inoculated region 0.0491 / 0.0964 / 0.0762; leaf margin 0 / 0 / 0; systemic leaves 0 / 0 / 0.
GGAAACCGCGGAGAC (pool 0.240) read inoculated region 0.115 / 0.112 / 0; leaf margin 0 / 0.0445 / 0.0200; systemic leaves 0 / 0 / 0.
GGAAACCGCUAGAGC (pool 0.224) read inoculated region 0.229 / 0.386 / 0.400; leaf margin 0.0485 / 0.111 / 0.140; systemic leaves 0.0483 / 0 / 0.205.
GGAAACCGCUAGAUC (pool 0.272) read inoculated region 0.295 / 0.225 / 0.400; leaf margin 0.113 / 0.0668 / 0.220; systemic leaves 0.0644 / 0.0908 / 0.0912.
GGAAACCGCUUCUGC (pool 0.272) read inoculated region 0.0655 / 0.0964 / 0.0381; leaf margin 0 / 0 / 0; systemic leaves 0 / 0 / 0.
GGAAACCGGAAUGCC (pool 0.208) read inoculated region 0.0655 / 0.0964 / 0.114; leaf margin 0.0162 / 0 / 0.0200; systemic leaves 0 / 0 / 0.
GGAAACCGGAAUUAC (pool 0.256) read inoculated region 0.311 / 0.386 / 0.400; leaf margin 0.0970 / 0.0891 / 0.100; systemic leaves 0.0161 / 0.0454 / 0.114.
GGAAACCGGAGACAC (pool 0.288) read inoculated region 0.0983 / 0.0964 / 0.133; leaf margin 0 / 0 / 0.0200; systemic leaves 0 / 0 / 0.
GGAAACCGGAUGGAC (pool 0.288) read inoculated region 0.0655 / 0.0964 / 0.114; leaf margin 0 / 0 / 0; systemic leaves 0 / 0 / 0.
GGAAACCGGCGAGUC (pool 0.272) read inoculated region 0.246 / 0.209 / 0.152; leaf margin 0.0162 / 0 / 0.0401; systemic leaves 0.0161 / 0 / 0.
GGAAACCGGGUCGAC (pool 0.192) read inoculated region 0.0655 / 0.0643 / 0.133; leaf margin 0.0162 / 0 / 0; systemic leaves 0 / 0 / 0.
GGAAACCGGUAGUCC (pool 0.288) read inoculated region 0.377 / 0.337 / 0.419; leaf margin 0.0647 / 0.223 / 0.200; systemic leaves 0.0161 / 0.0605 / 0.0456.
GGAAACCGGUGAGAC (pool 0.144) read inoculated region 0.0491 / 0.145 / 0.133; leaf margin 0.0162 / 0 / 0; systemic leaves 0 / 0 / 0.
GGAAACCGGUUGUUC (pool 0.240) read inoculated region 0.328 / 0.289 / 0.305; leaf margin 0.162 / 0.0891 / 0.200; systemic leaves 0.0322 / 0 / 0.
GGAAACCGUAAAACC (pool 0.208) read inoculated region 0.0655 / 0.112 / 0.114; leaf margin 0 / 0 / 0.0401; systemic leaves 0.0161 / 0 / 0.
GGAAACCGUAAACAC (pool 0.224) read inoculated region 0.459 / 0.241 / 0.286; leaf margin 0.129 / 0.134 / 0.140; systemic leaves 0.0644 / 0.0756 / 0.114.
GGAAACCGUAAAUCC (pool 0.240) read inoculated region 0.278 / 0.225 / 0.457; leaf margin 0.129 / 0.0668 / 0.0601; systemic leaves 0.0161 / 0 / 0.
GGAAACCGUAACCGC (pool 0.144) read inoculated region 0.0819 / 0.0803 / 0.0952; leaf margin 0 / 0 / 0.0601; systemic leaves 0 / 0 / 0.
GGAAACCGUCAAUGC (pool 0.208) read inoculated region 0.393 / 0.241 / 0.438; leaf margin 0.0808 / 0.245 / 0.0801; systemic leaves 0.129 / 0.0151 / 0.0456.
GGAAACCGUCAUAUC (pool 0.176) read inoculated region 0.377 / 0.450 / 0.476; leaf margin 0.129 / 0.0668 / 0.140; systemic leaves 0.0322 / 0.106 / 0.160.
GGAAACCGUCGAAGC (pool 0.112) read inoculated region 0.0819 / 0.0321 / 0.133; leaf margin 0.0162 / 0 / 0.0200; systemic leaves 0.0161 / 0 / 0.
GGAAACCGUGGCGGC (pool 0.176) read inoculated region 0.229 / 0.209 / 0.133; leaf margin 0 / 0.0223 / 0; systemic leaves 0 / 0 / 0.
GGAAACCGUUCAGAC (pool 0.128) read inoculated region 0.131 / 0.0482 / 0.0952; leaf margin 0.0162 / 0.0223 / 0.0401; systemic leaves 0 / 0 / 0.

The last 4 entries again:

sequence,pool,inoculated region,leaf margin,systemic leaves
GGAAACCGUCAUAUC,0.176,0.377 / 0.450 / 0.476,0.129 / 0.0668 / 0.140,0.0322 / 0.106 / 0.160
GGAAACCGUCGAAGC,0.112,0.0819 / 0.0321 / 0.133,0.0162 / 0 / 0.0200,0.0161 / 0 / 0
GGAAACCGUGGCGGC,0.176,0.229 / 0.209 / 0.133,0 / 0.0223 / 0,0 / 0 / 0
GGAAACCGUUCAGAC,0.128,0.131 / 0.0482 / 0.0952,0.0162 / 0.0223 / 0.0401,0 / 0 / 0

Sequences that differ at fixed positions probably stem from PCR or sequencing errors, and defective variants can be carried along by functional ones. For reference, wild type rose from 33.9 per thousand in the pool to 202, 200, 159 (inoculated region), 724, 746, 710 (leaf margin) and 856, 883, 880 (systemic leaves).